Results of unrelated studies side by side (data: NIAID ChemDB).

Shared fields: whole-cell or culture tests; organism: Cryptococcus neoformans; endpoint: MIC

Conditions beyond the fields shown may differ between rows. An empty or dashed field is not shown.

smiles	strain	result
Cn1cncc1C(=O)c1nccc2c1[nH]c1ccccc12		6 µg/mL
Cc1cc(NC(=O)c2ccc(NC(=O)COc3ccc(Cl)cc3)cc2)no1	ATCC90112	>100 µg/mL
Clc1ccc(C(Cn2ccnc2)OCc2cccc3ccccc23)c(Cl)c1		>128 µg/mL
N#CC(CC(=O)O)C(N)C(=O)O	IAM 4514	>100 µg/mL
CC[C@@]1(O)C(=O)OCc2c1cc1n(c2=O)Cc2cc3c(CN(C)C)c(O)ccc3nc2-1	NCPF 3379	>100 µM
CC(N1CCN(c2ccc(-n3ccnn3)cc2)C1=O)C(O)(Cn1cncn1)c1ccc(F)cc1F	TIMM1855	0.13 µg/mL
COc1cc(/C=C2\CSc3ccccc3C2=O)ccc1O	Farwania	50 µg/mL
CC[C@@H]([C@H](C)O)n1ncn(-c2ccc(N3CCN(c4ccc(OC[C@@H]5CO[C@@](Cn6cncn6)(c6ccc(F)cc6F)C5)cc4)CC3)cc2)c1=O	486 (HIV+)	1 µg/mL
COc1cc(NS(=O)(=O)c2ccc(N)cc2)ncn1	IFM 51976	≥256 µg/mL
COc1ccc2c(c1)C(=O)/C(=C/c1ccc3c(c1)OCO3)CO2	25	25 µg/mL
CC[C@@]1(O)C[C@H](O[C@H]2C[C@H](N(C)C)[C@H](O[C@H]3C[C@H](O)[C@H](O[C@H]4CCC(=O)[C@H](C)O4)[C@H](C)O3)[C@H](C)O2)c2c(cc3c(c2O)C(=O)c2c(O)cccc2C3=O)[C@H]1C(=O)OC	N-3	0.6 µg/mL
COc1ccc(N2CCN(CCc3nnn([C@@H](C)[C@](O)(Cn4cncn4)c4ccc(F)cc4F)n3)CC2)cc1	LA314	>16 µg/mL
CCC(C)n1ncn(-c2ccc(N3CCN(c4ccc(OC[C@H]5CO[C@](Cn6cncn6)(c6ccc(Cl)cc6Cl)O5)cc4)CC3)cc2)c1=O	TIMM1740	0.06 µg/mL
CCCCCC(Cn1ccnc1)c1ccccc1Cl		10 µg/mL
COc1cc(O)c2c(c1)C(=O)c1c(cc3c(c1O)-c1c(cc(C)c(C(=O)NC(CO)C(=O)O)c1O)[C@H](OC1OC(C)C(N(C)C)C(OC4OCC(O)C(O)C4O)C1O)[C@H]3O)C2=O	1 isolates	1.6 µg/mL
COc1ccccc1/C=C1\COc2ccc(-c3ccccc3)cc2C1=O	25	25 µg/mL
CNC1C(C)OC(O[C@H]2c3cc(C)c(C(=O)N[C@@H](CO)C(=O)O)c(O)c3-c3c(cc4c(c3O)C(=O)c3cc(OC)cc(O)c3C4=O)[C@@H]2O)C(O)C1OC1OCC(O)C(O)C1O	IAM 4514	0.8 µg/mL
Cc1cc(NC(=O)c2cccc(NC(=O)COc3ccccc3)c2)no1	ATCC90112	>100 µg/mL
COc1ccc(CN(Cc2ccc(-c3ccccc3)cc2)n2ccnc2)cc1		200 µM
CCCCCOc1ccc(-c2cc(-c3ccc(C(=O)N[C@H]4C[C@@H](O)[C@@H](O)NC(=O)[C@@H]5[C@@H](O)[C@@H](C)CN5C(=O)[C@H]([C@H](O)CC(N)=O)NC(=O)[C@H]([C@H](O)[C@@H](O)c5ccc(O)c(OS(=O)(=O)O)c5)NC(=O)[C@@H]5C[C@@H](O)CN5C(=O)[C@H]([C@@H](C)O)NC4=O)cc3)no2)cc1	FMR 8420	64 µg/mL
CCCCCC(Cn1ccnc1)c1c(Cl)cccc1Cl		<1 µg/mL
C[C@H](n1nnc(CCN2CCN(c3ccccc3)CC2)n1)[C@](O)(Cn1cncn1)c1ccc(F)cc1F	LA314	>16 µg/mL
CCCCCCCCCCCCCCCC(=O)NC1CC(O)C(O)NC(=O)C2C(O)C(CO)CN2C(=O)C(CCC(N)=O)NC(=O)C(C(O)C(O)c2ccc(O)cc2)NC(=O)C2CC(O)CN2C(=O)C(C(C)O)NC1=O		>20 µg/mL
Cc1cc(NC(=O)c2cccc(NC(=O)COc3ccc(Cl)cc3)c2)no1	ATCC90112	>100 µg/mL
CCCCC(Cn1ccnc1)c1c(Cl)cccc1Cl		<1 µg/mL
COc1ccccc1/C=C1\CSc2ccc(Cl)cc2C1=O	25	1.5 µg/mL
Nc1ccc(S(=O)(=O)Nc2ccnn2-c2ccccc2)cc1	IFM 40215	≤4 µg/mL
Clc1ccc(CCC(Cn2ccnc2)c2ccc(Cl)cc2Cl)c(Cl)c1		<1 µg/mL
CCCCCCC(Cn1ccnc1)c1ccc(Cl)cc1		<1 µg/mL
COc1cccc2c1C(=O)c1c(O)c3c(c(O)c1C2=O)C[C@@](O)(C(C)=O)C[C@@H]3O[C@H]1C[C@H](N)[C@H](O)[C@H](C)O1	Clinical isolate (capsule-negative)	>100 µM
C[C@H](n1nnnc1CCN1CCN(c2ccccc2)CC1)[C@](O)(Cn1cncn1)c1ccc(F)cc1F	LA314	>16 µg/mL
Cc1ccccc1CN(Cc1ccc(-c2ccccc2)cc1)n1ccnc1		5.5 µM
O=C1/C(=C/c2ccccc2)CSc2ccc(Cl)cc21	93/V	50 µg/mL
Cc1ccc(C(Cn2ccnc2)OCc2cccc3ccccc23)cc1		>128 µg/mL
COc1cc(O)c2c(c1CC=C(C)C)O[C@H](c1c(CC=C(C)C)cc(OC)c(OC)c1CC=C(C)C)[C@@H](O)C2=O	ATCC 32264	>100 µg/mL
Cc1cc(NC(=O)c2ccccc2NC(=O)COc2ccc(Cl)cc2)no1	ATCC90112	>100 µg/mL
Clc1ccc(CN(Cc2ccc(-c3ccccc3)cc2)n2ccnc2)c(Cl)c1		2.5 µM
N=C(N)c1ccc(OCCCC2CCN(CCCOc3ccc(C(=N)N)cc3)CC2)cc1	ATCC90112	0.0313 µg/mL
CC(Cn1ccnc1)c1ccc(F)cc1		100 µg/mL
COc1cc(NS(=O)(=O)c2ccc(N)cc2)nc(OC)n1	IFM 40215	≥256 µg/mL
Cn1ncc(C(c2ccccc2)n2ccnc2)c1-c1ccccc1		>200 µM
OCC1c2ccccc2SC1c1cc(Cl)ccc1O	Farwania	12.5 µg/mL
Cc1ccccc1C(Cc1c(Cl)cccc1Cl)Cn1ccnc1		100 µg/mL
CC(C)=CCc1cc(O)c(O)c(CC=C(C)C)c1-c1oc2c(CC=C(C)C)c(O)cc(O)c2c(=O)c1O	ATCC 32264	>100 µg/mL
C[C@H](n1nnc(CCN2CCN(c3ccc(F)cc3)CC2)n1)[C@](O)(Cn1cncn1)c1ccc(F)cc1F	LA314	2 µg/mL
CCCCCC(Cn1ccnc1)c1ccc(Cl)cc1		10 µg/mL
C[C@@H](n1cnc2cc(Cl)ccc2c1=O)[C@](O)(Cn1cncn1)c1ccc(F)cc1F	Isolate 158.03	1.25 µg/mL
CC[C@@]1(O)C[C@H](O[C@H]2C[C@H](N(C)C)[C@H](O[C@H]3C[C@H](O)[C@H](O[C@H]4CCC(=O)[C@H](C)O4)[C@H](C)O3)[C@H](C)O2)c2c(cc3c(c2O)C(=O)c2c(O)cccc2C3=O)[C@H]1C(=O)OC	NCPF 3379	35.7 µM
O=C1/C(=C/c2ccc(O)cc2)COc2ccccc21	Farwania	6 µg/mL
CC(N1CCN(c2ccc(-n3cnnn3)cc2)C1=O)C(O)(Cn1cncn1)c1ccc(F)cc1F	TIMM1740	0.03 µg/mL
Clc1ccc(C(Cc2ccccc2Cl)Cn2ccnc2)cc1		<1 µg/mL
OCC1c2ccccc2SC1c1ccccc1	Farwania	12.5 µg/mL
Clc1ccc(C(Cn2ccnc2)OC/C=C/c2ccccc2)cc1		>128 µg/mL
Cc1cc(NS(=O)(=O)c2ccc(N)cc2)no1	IFM 40216	32 µg/mL
C[C@H](n1nnc(CCN2CCN(c3ccccn3)CC2)n1)[C@](O)(Cn1cncn1)c1ccc(F)cc1F	LA314	8 µg/mL
C[C@@H](c1nc(-c2ccc(C#N)cc2)cs1)[C@](O)(Cn1cnnc1)c1ccc(F)cc1F	A26037	0.008 µg/mL
CC[C@@H]([C@H](C)O)n1ncn(-c2ccc(N3CCN(c4ccc(OC[C@@H]5CO[C@@](Cn6cncn6)(c6ccc(F)cc6F)C5)cc4)CC3)cc2)c1=O	89-610	0.25 µg/mL
C[C@@H](n1ncn(-c2ccc(OCC(F)(F)C(F)F)cc2)c1=O)[C@](O)(Cn1cncn1)c1ccc(F)cc1F	DUMC 124.96	0.0625 µg/mL
COc1ccc(/C=C2\COc3ccc(-c4ccccc4)cc3C2=O)cc1	Farwania	25 µg/mL
NCCNC(=O)C1=Nc2ccc(NC(=O)C3=Nc4ccc(C(=O)Nc5ccc6[nH]c(C(=O)NCCN)cc6c5)cc4C3)cc2C1	Serotype D	8 µg/mL
C[C@H](n1nnnc1CCN1CCN(c2cccc(Cl)c2)CC1)[C@](O)(Cn1cncn1)c1ccc(F)cc1F	LA314	>16 µg/mL
CC(C)(C)c1c(C(c2ccccc2)n2cncn2)cnn1-c1ccccc1		>200 µM
Clc1ccc(CN(Cc2ccc(-c3ccccc3)cc2)n2ccnc2)cc1		200 µM
CC[C@H]1/C=C(\C)[C@H](O)[C@H](C)C[C@H](OC)[C@H]2O[C@@](O)(C(=O)C(=O)N3CCCC[C@H]3C(=O)O[C@H](/C(C)=C/[C@@H]3CC[C@@H](O)[C@H](OC)C3)[C@H](C)[C@@H](O)CC1=O)[C@H](C)C[C@@H]2OC	C21F2	100 µg/mL
OC(Cn1cncn1)(Cn1nnnc1CCN1CCN(c2cccc(Cl)c2)CC1)c1ccc(F)cc1F	LA314	>16 µg/mL
c1ccc(C(Cn2ccnc2)OCc2cccc3ccccc23)cc1		>128 µg/mL
Cc1cc(NC(=O)c2ccccc2NC(=O)COc2ccccc2)no1	ATCC90112	>100 µg/mL
CCc1ccc(/C=C2\CCc3ccccc3C2=O)cc1	25	12.5 µg/mL
CCCc1c(C(c2ccccc2)n2ccnc2)cnn1-c1ccccc1		66 µM
CC(C)=CCC1=C(O)c2ccccc2C(=O)C1=O		0.03 µg/mL
Clc1ccc(C(Cc2ccc(Br)cc2)Cn2ccnc2)c(Cl)c1		<1 µg/mL
OCc1c(-c2ccc3c(c2)OCO3)sc2ccccc12	Farwania	12.5 µg/mL
OC(Cn1cncn1)(Cn1cncn1)c1ccc(F)cc1F	TIMM0362	25 µg/mL
OCC1c2ccccc2SC1c1ccccc1O	Farwania	12.5 µg/mL
COc1cc(O)c2c(c1)C(=O)c1c(cc3c(c1O)-c1c(cc(C)c(C(=O)NCC(=O)O)c1O)[C@H](O[C@@H]1O[C@H](C)[C@H](N)[C@H](O[C@@H]4OC[C@@H](O)[C@H](O)[C@H]4O)[C@H]1O)[C@H]3O)C2=O	IAM 4514	0.8 µg/mL
CN(C)c1ccc(-c2sc3ccccc3c2CO)cc1	Isolate 25	12.5 µg/mL
c1ccc(C(c2cnn(-c3ccccc3)c2)n2cncn2)cc1		>200 µM
COc1ccc(/C=C2\COc3ccc(OC)cc3C2=O)cc1	93/V	25 µg/mL
CCCCCC(Cn1ccnc1)c1ccccc1Br		10 µg/mL

The first 11 rows once more:

Cn1cncc1C(=O)c1nccc2c1[nH]c1ccccc12 ; result: 6 µg/mL
Cc1cc(NC(=O)c2ccc(NC(=O)COc3ccc(Cl)cc3)cc2)no1 ; strain: ATCC90112 ; result: >100 µg/mL
Clc1ccc(C(Cn2ccnc2)OCc2cccc3ccccc23)c(Cl)c1 ; result: >128 µg/mL
N#CC(CC(=O)O)C(N)C(=O)O ; strain: IAM 4514 ; result: >100 µg/mL
CC[C@@]1(O)C(=O)OCc2c1cc1n(c2=O)Cc2cc3c(CN(C)C)c(O)ccc3nc2-1 ; strain: NCPF 3379 ; result: >100 µM
CC(N1CCN(c2ccc(-n3ccnn3)cc2)C1=O)C(O)(Cn1cncn1)c1ccc(F)cc1F ; strain: TIMM1855 ; result: 0.13 µg/mL
COc1cc(/C=C2\CSc3ccccc3C2=O)ccc1O ; strain: Farwania ; result: 50 µg/mL
CC[C@@H]([C@H](C)O)n1ncn(-c2ccc(N3CCN(c4ccc(OC[C@@H]5CO[C@@](Cn6cncn6)(c6ccc(F)cc6F)C5)cc4)CC3)cc2)c1=O ; strain: 486 (HIV+) ; result: 1 µg/mL
COc1cc(NS(=O)(=O)c2ccc(N)cc2)ncn1 ; strain: IFM 51976 ; result: ≥256 µg/mL
COc1ccc2c(c1)C(=O)/C(=C/c1ccc3c(c1)OCO3)CO2 ; strain: 25 ; result: 25 µg/mL
CC[C@@]1(O)C[C@H](O[C@H]2C[C@H](N(C)C)[C@H](O[C@H]3C[C@H](O)[C@H](O[C@H]4CCC(=O)[C@H](C)O4)[C@H](C)O3)[C@H](C)O2)c2c(cc3c(c2O)C(=O)c2c(O)cccc2C3=O)[C@H]1C(=O)OC ; strain: N-3 ; result: 0.6 µg/mL